From article PMC3364000 (Vaccine, 2009) come the findings set out here.

Holding throughout (experiment): biochemical
Format in all cases: binding

Experiment [1] addresses HLA-DRB4*0101 (Homo sapiens, UniProt P01903+P13762, G164S).
The target of experiment [2] is HLA-DRB1*0301 (Homo sapiens, UniProt P01903+P01911, A100K/A102G/A103R/A169T/F55Y/I96L/K41T/L162R/M171V/P40S/Q125H/Q178H/Q39Y/R42S/S66N/T106N/T262R/W38E/Y61H).
Experiment [3] deals with HLA-DRB1*0701 (Homo sapiens, UniProt P01903+P01911, A100R/A102G/A103Q/D57E/D86V/E43K/F76Y/K127E/L162R/M171V/P40G/Q125H/Q99D/R33Q/R42Y/R54Q/S133A/S66F/T210M/V115G/Y107V/Y59L/Y89S).

A word on the IC50: it is the concentration that gives 50% inhibition. In experiment [1], `CC[C@H](C)[C@H](NC(=O)CNC(=O)[C@@H](N)CCCCN)C(=O)N[C@@H](CC(C)C)C(=O)NCC(=O)N[C@@H](Cc1ccccc1)C(=O)N[C@H](C(=O)N[C@@H](Cc1ccccc1)C(=O)N[C@H](C(=O)N[C@@H](CC(C)C)C(=O)N[C@H](C(=O)N[C@H](C(=O)N1CCC[C@H]1C(=O)N[C@@H](CO)C(=O)N[C@@H](CCC(=O)O)C(=O)O)C(C)C)[C@@H](C)O)[C@@H](C)O)C(C)C` [M1.57] had a half-inhibitory concentration (IC50) of 356 nM.
With `CC[C@H](C)[C@H](NC(=O)[C@H](CC(N)=O)NC(=O)[C@H](Cc1ccc(O)cc1)NC(=O)[C@H](CC(C)C)NC(=O)[C@H](CC(N)=O)NC(=O)[C@@H]1CCCN1)C(=O)N[C@@H](CCCNC(=N)N)C(=O)N[C@@H](CC(N)=O)C(=O)N[C@@H](CC(C)C)C(=O)N[C@@H](Cc1c[nH]cn1)C(=O)N[C@H](C(=O)N1CCC[C@H]1C(=O)N[C@@H](CCC(=O)O)C(=O)N[C@H](C(=O)N[C@@H](CS)C(=O)O)C(C)C)[C@@H](C)CC` [PB1.596], the values for the concentration for half-maximal inhibition (IC50) in experiment [2] and in experiment [3] were more than 10000 nM and 10 nM, respectively.
